Results of unrelated studies side by side (data: NIAID ChemDB).

Common to all: tests in culture

A number after MIC or MFC names an inhibition level or a share of isolates. a–b is a range or a potency band. Percent inhibition refers to the dose given; in toxicity tests it is the harm to the cells. Blank or dashed fields: not listed here. ECn: concentration that inhibits the pathogen or its effect by n%. Conditions beyond the fields shown may differ between rows.

SMILES,conditions,organism,strain,read by,read-out,dose,value
COc1c(N2CC[C@H](N)C2)c(F)cc2c(=O)n(N)c(=O)n(C3CC3)c12,-,Mycobacterium smegmatis,A91V mutant,-,MIC99,-,25 µg/mL
CCc1cc(C(N)=S)ccn1,-,Mycobacterium avium complex,713 strains,agar,EC50,-,>5 µg/mL
Cc1ccn2c(C(=O)NCc3ccc(N4CC=C(c5ccc(OC(F)(F)F)cc5)CC4)c(F)c3)c(C)nc2c1.Cl,-,Mycobacterium avium,-,fluorescence,inhibition,0.2 µM,85%
CCC1CN(c2c(F)cc3c(=O)n(N)c(=O)n(C4CC4)c3c2OC)CCN1,-,Mycobacterium smegmatis,WT,-,MIC99,-,10 µg/mL
CC[C@H]1OC(=O)[C@H](C)[C@@H](O[C@H]2C[C@@](C)(OC)[C@@H](O)[C@H](C)O2)[C@H](C)[C@@H](O[C@@H]2O[C@H](C)C[C@H](N(C)C)[C@H]2O)[C@](C)(O)C[C@@H](C)CN(C)[C@H](C)[C@@H](O)[C@]1(C)O,-,Mycobacterium intracellulare,ATCC 13950,resazurin,MIC,-,5 µg/mL
Nc1ccc(S(=O)(=O)c2ccc(N)cc2)cc1,-,Mycobacterium avium complex,DW27,-,MIC,-,64 µg/mL
CCCCCCCCCCCCc1ccc(NC(=O)C2=CCN(C)[C@@H]([C@H](O[C@@H]3O[C@H](CN)[C@@H](O)[C@H]3O)[C@H]3O[C@@H](n4ccc(=O)[nH]c4=O)[C@H](O)[C@@H]3O)C(=O)N2C)cc1,-,Mycobacterium avium paratuberculosis,ATCC 43015,-,MIC,-,0.39 µg/mL
Cc1nc2ccc(F)cn2c1C(=O)NCc1ccc(N2CCN(c3ccc(OC(F)(F)F)cc3)[C@H](C)C2)c(F)c1.Cl,-,Mycobacterium avium,-,fluorescence,inhibition,0.038 µM,85%
Cc1ccc2oc(=S)n(-c3ccccc3)c(=S)c2c1,14 d,Mycobacterium kansasii,My 235/80,-,MIC,-,2 µM
C=C(C)COc1ccc(-c2n[nH]c(C(F)(F)F)c2-c2ccc(Cl)cc2)c(O)c1,-,Mycobacterium marinum,-,visual reading,MIC,-,>50 µg/mL
CCCCCc1c2c(cc(O)c1C(=O)O)OC(=O)c1c(cc(C=O)cc1C(=O)CCCC)O2,-,Mycobacterium aurum,-,-,MIC,-,125 µg/mL
CC(C)NC/C=C/CNC(C)C,-,Mycobacterium smegmatis,ATCC 607,-,inhibition,250 µg/mL,0%
COc1c(N2CC[C@@H](CN)C2)c(F)cc2c(=O)[nH]c(=O)n(C3CC3)c12,-,Mycobacterium smegmatis,A91V mutant,-,MIC99,-,50 µg/mL
CC1(C)N=C(N)N=C(N)N1OCCCOc1cc(Cl)c(Cl)cc1Cl,-,Mycobacterium avium complex,101,-,MIC,-,≤0.5 µg/mL
COc1ccc2oc(=O)n(-c3ccc(F)cc3)c(=S)c2c1,21 d,Mycobacterium kansasii,My 235/80,-,MIC,-,32 µM
Cc1cn2c(C(=O)NCc3ccc(N4CCN(c5ccc(C(F)(F)F)cn5)CC4)c(C(F)(F)F)c3)c(C)nc2cc1Cl,-,Mycobacterium avium,-,fluorescence,inhibition,0.59 µM,85%
COCc1cn([C@H]2C[C@H](O)[C@@H](CO)O2)c(=O)[nH]c1=O,-,Mycobacterium avium,ATCC 25291,-,EC50,-,>50 µg/mL
Cc1ccc2oc(=O)n(-c3ccc(Cl)cc3)c(=S)c2c1,14 d,Mycobacterium kansasii,6509/96,-,MIC,-,2 µM
CC(C)C(C)NCCNC(C)C(C)C,-,Mycobacterium smegmatis,ATCC 607,-,EC50,-,>250 µg/mL
O=c1[nH]c(=O)n([C@H]2C[C@H](F)[C@@H](CO)O2)cc1Cl,-,Mycobacterium avium,ATCC 25291,-,EC50,-,>50 µg/mL
CCCCC(C)NCCNC(C)CCCC,-,Mycobacterium smegmatis,ATCC 607,-,inhibition,500 µg/mL,100%
N[C@@H]1CONC1=O,-,Mycobacterium avium complex,97 strains,agar,inhibition,30 µg/mL,40%
O=c1oc2ccc(Cl)cc2c(=S)n1-c1ccc(C(F)(F)F)cc1,14 d,Mycobacterium kansasii,My 235/80,-,MIC,-,16 µM
CCCCCCCCCCCCCCCCCCC(=O)NC(C)(CCC(=O)O)CCC(=O)O,-,Mycobacterium marinum,ATCC 927,-,MIC,-,215 µg/mL
Cc1c(OCC(F)(F)F)ccnc1CSc1nc2ccccc2[nH]1,-,Mycobacterium bolletii,1999-0888,resazurin,MIC90,-,>100 µM
Cc1ccc2oc(=S)n(-c3ccc(Cl)cc3)c(=S)c2c1,14 d,Mycobacterium kansasii,6509/96,-,MIC,-,4 µM
CCCCCCCCCCCCCCNC(=O)NC(CCC(=O)O)(CCC(=O)O)CCC(=O)O,-,Mycobacterium marinum,ATCC 927,-,MIC,-,216 µg/mL
O=c1oc2ccc(F)cc2c(=S)n1-c1ccc(Cl)c(Cl)c1,21 d,Mycobacterium kansasii,6509/96,-,MIC,-,2 µM
CCc1nc2ccc(Cl)cn2c1C(=O)NCc1ccc(N2CCC(c3ccc(OC(F)(F)F)cc3)CC2)cc1,-,Mycobacterium intracellulare,-,resazurin,MIC,-,<2 µM
Cc1ccn2c(C(=O)NCc3ccc(-c4ccc(OCC(F)(F)F)cc4)c(F)c3)c(C)nc2c1,-,Mycobacterium avium,-,fluorescence,inhibition,0.043 µM,85%
CC(=O)O[C@H]1C[C@H](n2cc(C(F)CCl)c(=O)[nH]c2=O)O[C@@H]1CO,-,Mycobacterium avium,ATCC 25291,-,EC90,-,1–5 µg/mL
CCCCCCCCCCCCCCCOC(=O)NC(CCC(=O)O)(CCC(=O)O)CCC(=O)O,-,Mycobacterium chelonae,EO-P-1,-,MIC,-,36 µg/mL
Cc1ccc2nc(C)c(C(=O)NCc3ccc(N4CCN(c5ccc(OC(F)(F)F)cc5)[C@@H](C)C4)c(F)c3)n2c1,-,Mycobacterium avium,-,fluorescence,inhibition,0.0022 µM,85%
CS(C)=O,-,Mycobacterium intracellulare,ATCC 13950,resazurin,MIC,-,>10 µg/mL
CCCCCCCCCCCCCCC(=O)NC(CCC(=O)O)(CCC(=O)O)CCC(=O)O,-,Mycobacterium marinum,ATCC 927,-,MIC,-,216 µg/mL
COc1c(N2C[C@@H]3CCCN[C@@H]3C2)c(F)cc2c(=O)n(N)c(=O)n(C3CC3)c12,-,Mycobacterium smegmatis,D95Y mutant,-,MIC99,-,100 µg/mL
NCC[C@H](O)C(=O)N[C@@H]1C[C@H](N)[C@@H](O[C@H]2O[C@H](CN)[C@@H](O)[C@H](O)[C@H]2O)[C@H](O)[C@H]1O[C@H]1O[C@H](CO)[C@@H](O)[C@H](N)[C@H]1O,-,Mycobacterium chelonae,-,broth dilution,MIC90,-,16 µg/mL
O=C(O)c1cn(C2CC2)c2cc(N3C[C@@H]4CCCN[C@@H]4C3)c(F)cc2c1=O,-,Mycobacterium smegmatis,WT,-,MIC99,-,0.031 µg/mL
CC1COc2c(N3CCN(C)CC3)c(F)cc3c(=O)c(C(=O)O)cn1c23,-,Mycoplasma hominis,20 strains,-,MIC50,-,0.2 µg/mL
Cc1cn2c(C(=O)NCc3ccc(C4CCN(c5ccc(OC(F)(F)F)cc5)CC4)c(F)c3)c(C)nc2s1,-,Mycobacterium avium,-,fluorescence,inhibition,0.33 µM,85%
CCc1nc2ccc(Cl)cn2c1C(=O)NCc1ccc(N2CCSCC2)c(F)c1,-,Mycobacterium intracellulare,-,resazurin,MIC,-,<2 µM
COc1ccc2oc(=S)n(-c3ccc(F)cc3)c(=S)c2c1,21 d,Mycobacterium kansasii,6509/96,-,MIC,-,16 µM
CC(C)NCCCNC(C)C,-,Mycobacterium smegmatis,ATCC 607,-,inhibition,1000 µg/mL,0%
CCCCCCCCCCN(CCCCCCCCCC)C(=O)NC(CCC(=O)O)(CCC(=O)O)CCC(=O)O,-,Mycobacterium abscessus,AAy-P-1,-,MIC,-,72 µg/mL
CCC(C)NCCNC(C)CC,-,Mycobacterium smegmatis,ATCC 607,-,EC50,-,<125 µg/mL
Cc1cn2c(C(=O)NCc3ccc(N4CCSCC4)c(F)c3)c(C)nc2s1,-,Mycobacterium intracellulare,-,resazurin,MIC,-,<2 µM
CCCCCCCCCCCCCCCCCCCCCOC(=O)NC(C)(CCC(=O)O)CCC(=O)O,-,Mycobacterium chelonae,EO-P-1,-,MIC,-,177 µg/mL
O=c1oc2ccc(F)cc2c(=S)n1-c1cccc(Cl)c1,14 d,Mycobacterium kansasii,My 235/80,-,MIC,-,1 µM
O=c1[nH]c(=O)n([C@H]2C[C@H](O)[C@@H](CO)O2)cc1CO,-,Mycobacterium avium,ATCC 25291,-,inhibition,50 µg/mL,0%
COc1ccc(-c2c(-c3ccc(OCc4ccccc4)cc3O)n[nH]c2C(F)(F)F)cc1,-,Mycobacterium marinum,-,visual reading,MIC,-,12.5 µg/mL
CO[C@H]1/C=C/O[C@@]2(C)Oc3c(C)c(O)c4c(O)c(c(/C=N/N5CCN(C6CCCC6)CC5)c(O)c4c3C2=O)NC(=O)/C(C)=C\C=C\[C@H](C)[C@H](O)[C@@H](C)[C@@H](O)[C@@H](C)[C@H](OC(C)=O)[C@@H]1C,-,Mycobacterium avium intracellulare,119,-,MIC,-,0.5 µg/mL
O=c1ccn([C@@H]2O[C@H](CO)[C@@H](O)[C@H]2F)c(=O)[nH]1,-,Mycobacterium avium,ATCC 25291,-,EC50,-,>50 µg/mL
CCc1nc2ccc(Cl)cn2c1C(=O)NCc1ccc(C2CCN(c3ccc(OC(F)(F)F)cc3)CC2)cc1F,-,Mycobacterium avium,-,fluorescence,inhibition,0.0031 µM,85%
COC(=O)c1c(C)cc(OC(=O)c2c(C)cc(O)c(C=O)c2O)c(C)c1O,-,Mycobacterium aurum,-,-,MIC,-,250 µg/mL
O=c1cc(-c2ccccc2)c2ccc(Cl)cc2o1,-,Mycobacterium marinum,ATCC 927,resazurin,MIC90,-,>100 µg/mL
Oc1cc(OCc2ccccc2Cl)ccc1-c1n[nH]c(C(F)(F)F)c1-c1ccc(Cl)cc1,-,Mycobacterium marinum,-,visual reading,MIC,-,50 µg/mL
C=Cc1cn([C@H]2C[C@H](O)[C@@H](CO)O2)c(=O)[nH]c1=O,-,Mycobacterium avium,ATCC 25291,-,EC50,-,>50 µg/mL
CO[C@H]1/C=C/O[C@@]2(C)Oc3c(C)c(O)c4c(=O)c(c5oc6cc(N7CCN(CC(C)C)CC7)cc(=O)c6nc5c4c3=C2O)NC(=O)/C(C)=C\C=C\[C@H](C)[C@H](O)[C@@H](C)[C@@H](O)[C@@H](C)[C@H](OC(C)=O)[C@@H]1C,-,Mycobacterium ulcerans,Isolate 94-539,-,MIC,-,0.012 µg/mL
O=[N+]([O-])c1ccc(COc2ccc(-c3n[nH]c(C(F)(F)F)c3-c3ccc(Cl)cc3)c(O)c2)cc1,-,Mycobacterium marinum,-,visual reading,MIC,-,50 µg/mL
CO[C@@H]1[C@H](O)[C@@H](CO)O[C@H]1n1cc(C)c(=O)[nH]c1=O,-,Mycobacterium avium,ATCC 25291,-,inhibition,50 µg/mL,0%

A second listing of 9 rows from above:

SMILES | conditions | organism | strain | read by | read-out | dose | value
CCCCCc1c2c(cc(O)c1C(=O)O)OC(=O)c1c(cc(C=O)cc1C(=O)CCCC)O2 | - | Mycobacterium aurum | - | - | MIC | - | 125 µg/mL
CS(C)=O | - | Mycobacterium intracellulare | ATCC 13950 | resazurin | MIC | - | >10 µg/mL
NCC[C@H](O)C(=O)N[C@@H]1C[C@H](N)[C@@H](O[C@H]2O[C@H](CN)[C@@H](O)[C@H](O)[C@H]2O)[C@H](O)[C@H]1O[C@H]1O[C@H](CO)[C@@H](O)[C@H](N)[C@H]1O | - | Mycobacterium chelonae | - | broth dilution | MIC90 | - | 16 µg/mL
COc1c(N2CC[C@H](N)C2)c(F)cc2c(=O)n(N)c(=O)n(C3CC3)c12 | - | Mycobacterium smegmatis | A91V mutant | - | MIC99 | - | 25 µg/mL
CC1(C)N=C(N)N=C(N)N1OCCCOc1cc(Cl)c(Cl)cc1Cl | - | Mycobacterium avium complex | 101 | - | MIC | - | ≤0.5 µg/mL
Cc1ccc2oc(=S)n(-c3ccccc3)c(=S)c2c1 | 14 d | Mycobacterium kansasii | My 235/80 | - | MIC | - | 2 µM
COc1c(N2CC[C@@H](CN)C2)c(F)cc2c(=O)[nH]c(=O)n(C3CC3)c12 | - | Mycobacterium smegmatis | A91V mutant | - | MIC99 | - | 50 µg/mL
Cc1nc2ccc(F)cn2c1C(=O)NCc1ccc(N2CCN(c3ccc(OC(F)(F)F)cc3)[C@H](C)C2)c(F)c1.Cl | - | Mycobacterium avium | - | fluorescence | inhibition | 0.038 µM | 85%
CO[C@@H]1[C@H](O)[C@@H](CO)O[C@H]1n1cc(C)c(=O)[nH]c1=O | - | Mycobacterium avium | ATCC 25291 | - | inhibition | 50 µg/mL | 0%